Pooled drug test results. Numbers come from NIAID ChemDB, via PubChem.

Common to all: host cell toxicity; cells: MT-4; read-out: CC50

Rows are shuffled and stem from different studies. CCn: concentration that lowers growth or viability of the cells by n%.

Nc1ncnc2c1ncn2C[C@@H]1C[C@@]1(CO)c1ccccc1 ; result: <2.29 µg/mL
CC(C)(C)OC(=O)N1CCCN(C(=O)OC(C)(C)C)CCN(C(=O)OC(C)(C)C)CCCN(CCCCC(=O)Nc2ccn([C@H]3CS[C@@H](COC(=O)CCCCN4CCCN(C(=O)OC(C)(C)C)CCN(C(=O)OC(C)(C)C)CCCN(C(=O)OC(C)(C)C)CC4)O3)c(=O)n2)CC1 ; result: 50 µM
C[C@H](Cn1cnc2c(N)ncnc21)OCP(=O)(O)O ; result: >300 µM
CC(C)[C@H](NC(=O)OCc1ccccc1)C(=O)N[C@@H](Cc1ccccc1)C(=O)C(F)(F)CCc1ccccn1 ; result: >100 µM
C1CNCCNCCCN(CCCN2CCCNCCNCCCNCC2)CCNC1 ; result: >500 µg/mL
CC(C)c1nc(COC(N)=O)n(Cc2ccncc2)c1S(=O)c1cc(Cl)cc(Cl)c1 ; result: >0.5 µg/mL
Cc1cccc(N2C(=O)CS[C@@H]2c2c(Br)cccc2Br)n1 ; result: 13.06 µM
CCS(=O)(=O)C[C@H]1O[C@@H](n2cc(C)c(=O)[nH]c2=O)C[C@@H]1N=[N+]=[N-] ; result: 4.4 µg/mL
CC(C)(C)NC(=O)[C@@H]1CC2CCCCC2CN1C[C@@H](OC(=O)CC(=O)O[C@H]1[C@@H](C2COC(C)(C)O2)OC2OC(C)(C)O[C@H]21)[C@H](Cc1ccccc1)NC(=O)[C@H](CC(N)=O)NC(=O)c1ccc2ccccc2n1 ; result: >10 µM
O=Cc1cn(COCCO)c2ccccc12 ; result: ≥200 µM
Nc1nc(N)c2ncn([C@H]3CC[C@@H](CO)O3)c2n1 ; result: 477 µM
CC(C)=CCC/C(C)=C/Cc1cc([C@H]2Oc3c(CC=C(C)C)c(O)cc(O)c3C(=O)[C@@H]2O)ccc1O ; result: >10 µg/mL
COc1ccc(Sc2nc(N)nc3c2ncn3CCOCP(=O)(OCC(F)(F)F)OCC(F)(F)F)cc1 ; result: >34 µM
Nc1ncnc2c1ncn2[C@H]1C[C@@H](F)[C@@H](CO)O1 ; result: >1250 µM
COC1=C(OC)/C(=C/COP(=O)(O)OCC2OC(n3cnc4c(N)ncnc43)C(O)C2OP(=O)(O)COCCn2cnc3ncnc(N)c32)OC1=O ; result: >300 µg/mL
C=CCOCn1c(Cc2ccccc2)c(C(C)C)c(=O)[nH]c1=O ; result: >100 µM
CC(C)=CCN1Cc2cccc3[nH]c(=S)n(c23)C[C@@H]1C ; result: ≥50 µM
Cc1cn([C@H]2C[C@H](N=[N+]=[N-])[C@@H](CO)O2)c(=O)[nH]c1=O ; result: 6.8 µM
Cc1cn([C@H]2C[C@H](N=[N+]=[N-])[C@@H](CO)O2)c(=O)[nH]c1=O ; result: 7.6 µM
CC(C)(C)NC(=O)[C@@H]1CN(Cc2cccnc2)CCN1C[C@@H](O)C[C@@H](Cc1ccccc1)C(=O)N[C@H]1c2ccccc2C[C@H]1O ; result: >100 µM
Fc1cccc(Cl)c1C1SCc2nc3cc(C(F)(F)F)ccc3n21 ; result: >335 µM
CC(C)=CCN1C(C)C(=O)N(C)c2ccc(Cl)cc2S1(=O)=O ; result: 41 µM
CC(C)=CCOCn1c(Cc2cc(C)cc(C)c2)c(C(C)C)c(=O)[nH]c1=O ; result: >100 µM
O=C(O[C@@H]1[C@@H](OC(=O)c2cc(O)c(O)c(O)c2)[C@H](O)[C@@H](CO)O[C@H]1O)c1cc(O)c(O)c(O)c1 ; result: 33.8 µg/mL
C=CC[C@@H]1/C=C(/C)C[C@H](C)C[C@H](OC)[C@H]2O[C@@](O)(C(=O)C(=O)N3CCCC[C@H]3C(=O)O[C@H](/C(C)=C/[C@@H]3CC[C@@H](O)[C@H](OC)C3)[C@H](C)[C@@H](O)CC1=O)[C@H](C)C[C@@H]2OC ; result: 10.9 µg/mL
O=S(=O)(O)OCC1OC(OC2C(COS(=O)(=O)O)OC(O)C(O)C2OS(=O)(=O)O)C(OS(=O)(=O)O)C(O)C1OC1OC(COS(=O)(=O)O)C(OC2OC(COS(=O)(=O)O)C(OC3OC(COS(=O)(=O)O)C(OC4OC(COS(=O)(=O)O)C(OS(=O)(=O)O)C(OS(=O)(=O)O)C4O)C(OS(=O)(=O)O)C3O)C(O)C2OS(=O)(=O)O)C(OS(=O)(=O)O)C1O ; result: >1000 µg/mL
CCN1C(c2c(Cl)cccc2Cl)c2cccn2-c2ccc(Cl)cc2S1(=O)=O ; result: 4.8 µM
COC(=O)c1cc(O)c(O)c(O)c1 ; result: 9.5 µg/mL
Cc1cc(-c2ccc(N=Nc3ccc4c(S(=O)(=O)O)cc(S(=O)(=O)O)c(N)c4c3O)c(C)c2)ccc1N=Nc1ccc2c(S(=O)(=O)O)cc(S(=O)(=O)O)c(N)c2c1O ; result: 196 µM
Fc1cccc(F)c1C1SCc2nc3cc(C(F)(F)F)ccc3n21 ; result: >351 µM
O=c1ccn(C[C@@H]2C[C@@]2(CO)c2ccccc2)c(=O)[nH]1 ; result: >100 µg/mL
O=C(O)CSc1ccc2[nH]c3ccccc3c(=O)c2c1 ; result: >400 µg/mL
CCN1C(=O)C(C)N(CC=C(C)C)S(=O)(=O)c2cc(Cl)ccc21 ; result: 62 µM
Fc1cc2nc3n(c2cc1F)C(c1c(Cl)cccc1Cl)SC3 ; result: 17.6 µM
COc1ccc(CN[C@@H](C(=O)N[C@H]2c3ccccc3C[C@H]2O)[C@H](O)[C@H](Cc2ccccc2)NC(=O)[C@@H](NC(=O)OCc2ccccc2)C(C)(C)C)cc1 ; result: 17.4 µM
CC(C)(C)OC(=O)N1CCCN(C(=O)OC(C)(C)C)CCN(C(=O)OC(C)(C)C)CCCN(CCCCC(=O)Nc2ccn([C@H]3CC[C@@H](CO)O3)c(=O)n2)CC1 ; result: 1 µM
COc1ccc2nc3n(c2c1)C(c1c(F)cccc1Cl)SC3 ; result: >373 µM
Cc1cn(C[C@H]2C[C@@]2(CO)c2ccccc2)c(=O)[nH]c1=O ; result: >100 µg/mL
CC(C)[C@H](NC(=O)CNC(=O)OCc1ccccc1)C(=O)N[C@@H](Cc1ccccc1)C(=O)C(F)(F)CCc1ccccc1 ; result: >100 µM
O=c1[nH]c(=O)n([C@H]2C[C@H](F)[C@@H](CO)O2)cc1Cl ; result: 490 µM
CC(C)=CCN1C(C)CNc2ccc(Cl)cc2S1(=O)=O ; result: 4.8 µM
Nc1c(-c2ccccc2)n(COCCO)c2ccccc12 ; result: 105 µM
NC(=O)c1ncn([C@@H]2O[C@H](CO)[C@@H](O)[C@H]2O)n1 ; result: >26 µM
CCOC(=O)c1cc(O)c(O)c(O)c1 ; result: 8.6 µg/mL
Cc1cn([C@H]2C[C@H](N=[N+]=[N-])[C@@H](CO)O2)c(=O)nc1NN(C)C ; result: 68.3 µM
c1cc(CN2CCCNCCNCCCNCC2)nc(CN2CCCNCCNCCCNCC2)c1 ; result: >500 µg/mL
Cc1ccc2c(c1)c1ccc(C)cc1c1ccc(CCCCCN3C(=O)CCC3=O)cc21 ; result: 100 µM
CC(C)(C)OC(=O)N1CCCN(C(=O)OC(C)(C)C)CCN(C(=O)OC(C)(C)C)CCCN(C(=O)CCCC(=O)OC[C@H]2O[C@@H](n3ccc(N)nc3=O)CS2)CC1 ; result: 100 µM
Nc1ncnc2c1ncn2[C@H]1CC[C@@H](CO)O1 ; result: >500 µM
N#Cc1cn([C@H]2C=C[C@@H](CO)O2)c2ncnc(N)c12 ; result: 44 µM
CCCCCCCCCCCCCCCCCCOC1OC(COS(=O)(=O)O)C(OC2OC(COS(=O)(=O)O)C(OC3OC(COS(=O)(=O)O)C(OC4OC(COS(=O)(=O)O)C(OC5OC(COS(=O)(=O)O)C(OC6OC(COS(=O)(=O)O)C(OS(=O)(=O)O)C(OS(=O)(=O)O)C6O)C(OS(=O)(=O)O)C5O)C(O)C4OS(=O)(=O)O)C(O)C3OS(=O)(=O)O)C(OS(=O)(=O)O)C2O)C(OS(=O)(=O)O)C1O ; result: 748 µg/mL
CC(C)(C)OC(=O)N1CCCN(C(=O)OC(C)(C)C)CCN(C(=O)OC(C)(C)C)CCCN(CCCCC(=O)OC[C@@H]2CC[C@H](n3ccc(N)nc3=O)O2)CC1 ; result: 10 µM
Oc1cc(O)c2c(c1)O[C@H](c1ccc(O)c(O)c1)[C@@H](O)C2 ; result: >100 µg/mL
NC(=O)C[C@H](NC(=O)OCc1ccccc1)C(=O)N[C@@H](Cc1ccccc1)C(=O)C(F)(F)CCc1ccccc1 ; result: >100 µM
Cc1cn([C@@H]2C[C@@H](N=[N+]=[N-])[C@H](COP(N)(=O)OC[C@H]3O[C@@H](n4cc(C)c(=O)[nH]c4=O)C[C@@H]3N=[N+]=[N-])O2)c(=O)[nH]c1=O ; result: >100 µM
O=[N+]([O-])c1c(-c2ccccn2)n(COCCO)c2ccccc12 ; result: >200 µM
Cc1ccnc2c1NC(=O)c1cccnc1N2C1CC1 ; result: >200 µM
CC(C)(C)NC(=O)[C@@H]1CC2CCCCC2CN1C[C@@H](OC(=O)CCC(=O)O[C@H]1[C@@H](C2COC(C)(C)O2)OC2OC(C)(C)O[C@H]21)[C@H](Cc1ccccc1)NC(=O)[C@H](CC(N)=O)NC(=O)c1ccc2ccccc2n1.O=C(O)C(F)(F)F.O=C(O)C(F)(F)F ; result: >10 µM
Cc1cccc2c1nc1n2C(c2c(F)cccc2Cl)SC1 ; result: >392 µM
CCC(C)(C)c1c(O)cc(O)c2c(=O)c(O)c(-c3cc(O)c4c(c3CC=C(C)C)CCC(C)(C)O4)oc12 ; result: 10 µg/mL
CCCCCCCCCCCCOC1OC(COS(=O)(=O)O)C(OC2OC(COS(=O)(=O)O)C(OC3OC(COS(=O)(=O)O)C(OC4OC(COS(=O)(=O)O)C(OC5OC(COS(=O)(=O)O)C(OC6OC(COS(=O)(=O)O)C(OS(=O)(=O)O)C(OS(=O)(=O)O)C6O)C(OS(=O)(=O)O)C5OS(=O)(=O)O)C(O)C4OS(=O)(=O)O)C(OS(=O)(=O)O)C3O)C(OS(=O)(=O)O)C2O)C(O)C1OS(=O)(=O)O ; result: 990 µg/mL
Cc1cn([C@H]2C[C@H](N=[N+]=[N-])[C@@H](COC(=O)CCCCN3CCCN(C(=O)OC(C)(C)C)CCN(C(=O)OC(C)(C)C)CCCN(C(=O)OC(C)(C)C)CC3)O2)c(=O)[nH]c1=O ; result: 50 µM
O=C(O)C[C@@H]1C(=O)O[C@H]2[C@@H]3OC(=O)c4cc(O)c(O)c(O)c4-c4c(cc(O)c(O)c4O)C(=O)OC[C@H]2O[C@@H](OC(=O)c2cc(O)c(O)c(O)c2)[C@@H]3OC(=O)c2cc(O)c(O)c3c2[C@H]1[C@H](O)C(=O)O3 ; result: 19.2 µg/mL
CC(C)=CCc1c(O)cc2c(c1O)C(=O)C[C@@H](c1ccc(O)cc1)O2 ; result: 32 µg/mL
O=C(c1ccccc1)c1ccc2c(c1)nc1n2C(c2c(F)cccc2F)SC1 ; result: 26.7 µM
Cc1ccnc2c1NC(=O)c1cccnc1N2C1CC1 ; result: >50 µM
FC(F)(F)c1ccc2nc3n(c2c1)C(c1c(Cl)cccc1Cl)SC3 ; result: 19.3 µM
O=c1ccn([C@H]2CC[C@@H](CO)O2)c(=O)[nH]1 ; result: >625 µM
COc1c(-c2ccc(O)cc2)oc2cc(O)c(CC=C(C)C)c(O)c2c1=O ; result: 4.3 µg/mL
O=C1c2cccn2-c2ccc(Cl)cc2S(=O)(=O)N1C1CCC1 ; result: >200 µM
O=C1C=CC(=C(c2ccc(O)cc2)c2ccc(O)cc2)C=C1 ; result: 2.6 µM
FC(F)(F)c1ccc2c(c1)nc1n2C(c2c(Cl)cccc2Cl)SC1 ; result: 25.9 µM
CC(C)(C)NC(=O)[C@@H]1CN(Cc2cccnc2)CCN1C[C@H](C[C@@H](Cc1ccccc1)C(=O)N[C@H]1c2ccccc2C[C@H]1O)OC(=O)CCCCNC(=O)O[C@H]1[C@@H](C2COC(C)(C)O2)OC2OC(C)(C)O[C@H]21.O=C(O)C(F)(F)F.O=C(O)C(F)(F)F ; result: >100 µM
CCN1C(=O)c2cccn2-c2ccc(Cl)cc2S1(=O)=O ; result: ≥200 µM
C#C[C@@]1(CO)C=C[C@H](n2cc(C)c(=O)[nH]c2=O)O1 ; result: >100 µM
CC(C)(C)NC(=O)[C@@H]1CN(Cc2cccnc2)CCN1C[C@H](C[C@@H](Cc1ccccc1)C(=O)N[C@H]1c2ccccc2C[C@H]1O)OC(=O)CCC(=O)O[C@H]1[C@@H](C2COC(C)(C)O2)OC2OC(C)(C)O[C@H]21 ; result: >10 µM

For reference, 5 entries again:

SMILES,result
O=C1C=CC(=C(c2ccc(O)cc2)c2ccc(O)cc2)C=C1,2.6 µM
Cc1ccc2c(c1)c1ccc(C)cc1c1ccc(CCCCCN3C(=O)CCC3=O)cc21,100 µM
CC(C)(C)OC(=O)N1CCCN(C(=O)OC(C)(C)C)CCN(C(=O)OC(C)(C)C)CCCN(CCCCC(=O)OC[C@@H]2CC[C@H](n3ccc(N)nc3=O)O2)CC1,10 µM
Nc1nc(N)c2ncn([C@H]3CC[C@@H](CO)O3)c2n1,477 µM
c1cc(CN2CCCNCCNCCCNCC2)nc(CN2CCCNCCNCCCNCC2)c1,>500 µg/mL